Data source: PubChem BioAssay AID504761 (Drosophila RNAi Screening Center, 2011)

Screen: 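Fly genes whose silencing reduces dengue virus type 2 infection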 (primary screen)
System: D.Mel-2 cells from Drosophila
Knock-down reagent: long dsRNA against Drosophila genes
Conditions: infection with dengue virus type 2; dose and infection time not stated
Detection: 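Per well on two replicate plates, imaging gave the percent of cells positive for viral envelope protein, ranked by infection, and a nuclear count of cells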
Scale: infection score: higher = more virus-infected cells; cell count: higher = more cells in the well
Hit rule: 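Low infection ranks in the two replicates (chance level up to 0.065) followed by a retest with a 1.5-fold or larger significant decrease, p below 0.05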
Meaning of the calls: active = confirmed: knock-down lowers infection; inactive = not picked or not confirmed
In all, the deposit lists about 22,000 reagents; this is an unselected part of those with a known target gene and a result. Over the whole deposit, 116 (0.52%) were called active. 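Calls depend on retest data that are not deposited; infection was ranked per plate without normalising between plates; the unit of the infection score is not given.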 Raw values vary from plate to plate and are shown uncorrected. Entries without a mark were called inactive. Reagents against one gene are numbered here. Not stated in the record: the amount of reagent, the time to read-out.

| target gene | dsRNA no. | infection score, replicate 1 | infection score, replicate 2 | cell count, replicate 1 | cell count, replicate 2 |
| --- | --- | --- | --- | --- | --- |
| ND-49 | 1 | 7.8 | 2.06 | 2193 | 4269 |
| Pms2 | 1 | 12.3 | 11.7 | 5446 | 6526 |
| Vti1a | 1 | 17.1 | 5.12 | 5069 | 1505 |
| Npc2f | 1 | 4.18 | 4 | 6676 | 6404 |
| HGTX | 1 | 5.29 | 1.48 | 6181 | 5756 |
| HGTX | 2 | 1.77 | 3.02 | 6117 | 6461 |
| CG15221 | 1 | 0.58 | 5.35 | 6749 | 6957 |
| GluRIA | 1 | 2.63 | 17.4 | 5774 | 5089 |
| CG14011 | 1 | 5.55 | 4.3 | 6508 | 6813 |
| CG14011 | 2 | 5.71 | 7.1 | 6204 | 6140 |
| Coq8 | 1 | 2.46 | 2.41 | 568 | 787 |
| CG34370 | 1 | 3.76 | 1.54 | 5873 | 5728 |
| CG34370 | 2 | 1.45 | 4.88 | 6841 | 6933 |
| CG34370 | 3 | 10.5 | 7.71 | 6769 | 6604 |
| CG34370 | 4 | 2.94 | 8.53 | 6797 | 6857 |
| CG34370 | 5 | 8.94 | 2.97 | 6099 | 6119 |
| Membrin | 1 | 6.76 | 7.18 | 6081 | 5974 |
| Grl58a | 1 | 3.02 | 2.64 | 6589 | 6749 |
| CG12182 | 1 | 6.36 | 3.95 | 6350 | 6600 |
| Cht9 | 1 | 4.91 | 22.5 | 7172 | 6574 |
| Cht9 | 2 | 5.43 | 2.06 | 6155 | 5875 |
| CG32651 | 1 | 2.8 | 1.75 | 6472 | 6905 |
| prd1 | 1 | 2.35 | 1.62 | 6470 | 6533 |

2 entries from above, ordered by “infection score, replicate 2”, ascending.
| target gene | dsRNA no. | infection score, replicate 1 | infection score, replicate 2 | cell count, replicate 1 | cell count, replicate 2 |
| --- | --- | --- | --- | --- | --- |
| HGTX | 1 | 5.29 | 1.48 | 6181 | 5756 |
| Npc2f | 1 | 4.18 | 4 | 6676 | 6404 |
